# Share of PSTVd loop 6 variants by leaf site

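A pool of all variants was put on leaves of three Nicotiana benthamiana plants. Progeny were sequenced from the inoculated region (day 5), the margin of the inoculated leaf (day 10) and systemic leaves (day 12).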

Region: loop 6 of PSTVd (intermediate strain), upper and lower strand joined, each 5' to 3', the first 5 letters being the upper strand, closing pairs included. Wild type: UGACCGCGAG. Varied positions (N): UNNNCGNNNG.

Values are reads per thousand in the sample; higher means more abundant, 0 means not found.
Each site shows the three plants.
"Pool" is the share in the plasmid pool used as inoculum, on the same scale.
The inoculated region was read from the minus strand, the other sites from the plus strand.
The authors trace changes outside the varied positions to PCR and sequencing errors or to mutation in the plant; presence does not show that a variant is infectious alone.
Wild type was 20.7 per thousand in the pool and the most common sequence in every sample (inoculated region 195, 198, 203; leaf margin 629, 591, 734; systemic leaves 942, 870, 868).
With 36,220-57,551 reads a sample, very low values are single reads.

sequence,pool,inoculated region,leaf margin,systemic leaves
GGACCGAUGG,0.0131,0.0348 / 0.0359 / 0,0 / 0 / 0,0 / 0 / 0
GGACCGCAAG,0.0131,0.817 / 0.701 / 0.406,0.0276 / 0.0504 / 0.0232,0.0180 / 0.0808 / 0.0410
GGACCGGAGG,0.0131,0.0348 / 0.0180 / 0.0184,0 / 0 / 0,0 / 0 / 0
GGACCGUCUG,0.0131,0.0348 / 0.0180 / 0,0 / 0 / 0,0 / 0 / 0
GGUCCGGCCG,0.0131,0 / 0 / 0,0 / 0 / 0,0 / 0 / 0
UAAACGAGAG,0.170,0.678 / 0.593 / 0.479,0.0552 / 0.0504 / 0.0696,0 / 0 / 0
UAAACGCCAG,0.131,0.556 / 0.431 / 0.553,0.0552 / 0.0757 / 0.0696,0.0180 / 0.0404 / 0.0205
UAAACGCUUG,0.235,0.0695 / 0.0719 / 0.0738,0 / 0 / 0.0232,0 / 0 / 0
UAACCGGGCG,0.118,0.678 / 0.647 / 0.553,0.0552 / 0.0757 / 0.0464,0 / 0 / 0
UAACCUACUA,0.0131,0 / 0 / 0,0 / 0 / 0,0 / 0 / 0
UAAUCGUGAG,0.261,0.226 / 0.126 / 0.148,0 / 0 / 0.0232,0 / 0 / 0
UAAUCGUUUG,0.353,0.174 / 0.0539 / 0.129,0 / 0 / 0,0 / 0 / 0
UACGCGAAGG,0.0784,0.139 / 0.0898 / 0.0369,0 / 0 / 0,0 / 0 / 0
UACUCGGAUG,0.209,0.191 / 0.108 / 0.148,0.0552 / 0 / 0,0 / 0.0404 / 0
UAGCCGUCAG,0.288,0.0521 / 0.0359 / 0.129,0.0552 / 0.227 / 0.0464,0 / 0 / 0
UAGGAGUAUG,0.0131,0 / 0 / 0,0 / 0 / 0,0 / 0 / 0
UAGGCGGAAG,0.183,0.0695 / 0.0539 / 0.0369,0 / 0 / 0,0 / 0 / 0
UAGUCGCGAG,0.196,0.174 / 0.0898 / 0.166,0.110 / 0.0252 / 0,0 / 0.202 / 0
UAUACGGAAG,0.248,0.469 / 0.808 / 0.590,0.0828 / 0.126 / 0.0928,0 / 0 / 0
UAUACGUCUG,0.379,0.156 / 0.0719 / 0.129,0 / 0 / 0,0 / 0 / 0
UAUCCGAUGG,0.484,0.0869 / 0.126 / 0.111,0 / 0.0252 / 0.0232,0 / 0 / 0.0410
UAUGCGUUUG,0.340,0.0695 / 0.0719 / 0.129,0 / 0 / 0.0232,0 / 0 / 0
UAUUCGAAGG,0.157,0.0348 / 0.0180 / 0.111,0 / 0 / 0.0232,0 / 0 / 0
UAUUCGGGAG,0.183,0.660 / 0.790 / 0.535,0.0276 / 0.0252 / 0.162,0 / 0 / 0
UCACCGGAGA,0.0131,0 / 0 / 0,0 / 0 / 0,0 / 0 / 0
UCAGCGCACG,0.131,0.0869 / 0.0359 / 0.0922,0.0276 / 0 / 0,0 / 0 / 0
UCAUCGAACG,0.248,0.122 / 0.144 / 0.0553,0 / 0 / 0.0232,0 / 0 / 0
UCCACGCCGG,0.261,0.139 / 0.0539 / 0.0922,0 / 0 / 0,0 / 0 / 0
UCCACGCGCG,0.170,0.0695 / 0.0359 / 0.111,0 / 0 / 0,0 / 0 / 0
UCCACGCUAG,0.183,0.122 / 0.0898 / 0.0553,0 / 0 / 0.0232,0 / 0 / 0
UCGCCGUGUG,0.196,0.0695 / 0.126 / 0.0369,0 / 0 / 0,0 / 0 / 0
UCGGCGCUGG,0.196,0.104 / 0.0539 / 0.0738,0.0276 / 0 / 0.0232,0 / 0 / 0
UCGUCGAAAG,0.118,0.0521 / 0.0359 / 0.111,0.0276 / 0 / 0.0464,0 / 0 / 0
UCUACGCGCG,0.248,0.122 / 0.0898 / 0.166,0.0276 / 0 / 0,0 / 0 / 0
UCUCCGGUCG,0.235,0.156 / 0.0898 / 0.0922,0.0552 / 0 / 0.0232,0 / 0 / 0
UGAACGAUUG,0.366,0.191 / 0.108 / 0.184,0 / 0 / 0,0 / 0 / 0
UGAACGCGAU,0.0261,0.799 / 0.701 / 0.498,0.110 / 0.0757 / 0.0232,0.0180 / 0.0404 / 0.0205
UGAACGGUCG,0.144,0.139 / 0.198 / 0.258,0.0276 / 0 / 0.0232,0 / 0 / 0
UGAACGUGGG,0.196,0.139 / 0.0898 / 0.221,0.0552 / 0 / 0,0 / 0 / 0
UGAGCGACGG,0.235,0.104 / 0.126 / 0.148,0 / 0 / 0,0 / 0 / 0
UGAUCGGCGG,0.183,0.0521 / 0.0359 / 0.0553,0 / 0 / 0.0232,0 / 0 / 0
UGCACGAUAG,0.314,0.156 / 0.108 / 0.166,0.0276 / 0 / 0.186,0 / 0 / 0
UGCCCGCCGG,0.196,0.0869 / 0.144 / 0.0922,0.0276 / 0 / 0,0 / 0 / 0
UGCCCGUUAG,0.327,0.174 / 0.162 / 0.111,0.0276 / 0 / 0,0 / 0 / 0
UGCGCGUCUG,0.235,0.122 / 0.0180 / 0.0369,0 / 0 / 0.0232,0 / 0 / 0
UGCGCGUGUG,0.275,0.0869 / 0.126 / 0.0553,0 / 0 / 0.0232,0 / 0 / 0
UGCUCGGAAG,0.105,0.174 / 0.0359 / 0.0553,0 / 0 / 0,0 / 0 / 0
UGCUCGGCUG,0.144,0.643 / 0.719 / 0.479,0.0828 / 0.151 / 0.139,0 / 0 / 0
UGGUCGCCGG,0.157,0.104 / 0.126 / 0.0369,0 / 0 / 0,0 / 0 / 0
UGUACGGACA,0.0131,0 / 0 / 0,0 / 0 / 0,0 / 0 / 0
UUAACGAAUG,0.431,0.139 / 0.180 / 0.0369,0 / 0 / 0.0696,0 / 0 / 0
UUAACGCAGG,0.235,0.0869 / 0.0719 / 0.0922,0 / 0 / 0,0 / 0 / 0
UUAACGCCGG,0.314,0.139 / 0.144 / 0.0738,0 / 0 / 0.0232,0 / 0 / 0
UUACCGAUGG,0.144,0.156 / 0.126 / 0.148,0 / 0 / 0,0 / 0 / 0
UUACCGUGCG,0.157,0.209 / 0.0898 / 0.277,0 / 0 / 0,0 / 0 / 0
UUAGCGGAUG,0.366,0.0869 / 0.0719 / 0.0369,0.0276 / 0 / 0,0 / 0 / 0
UUAUCGGACG,0.275,0.730 / 0.557 / 0.645,0.0828 / 0 / 0.116,0 / 0.0202 / 0
UUCACGUAUG,0.523,0.174 / 0.0719 / 0.129,0.442 / 0 / 0,0 / 0 / 0
UUCACGUUCG,0.301,0.156 / 0.0539 / 0.0922,0.0276 / 0 / 0,0 / 0 / 0
UUCCCGAAGG,0.209,0.156 / 0.0898 / 0.0922,0 / 0 / 0,0 / 0 / 0
UUCCCGUGAG,0.144,0.122 / 0.0898 / 0.0922,0 / 0 / 0.0232,0 / 0 / 0
UUCUCGAAGG,0.131,0.122 / 0.0359 / 0.0738,0 / 0 / 0,0 / 0 / 0
UUCUCGGAGG,0.261,0.104 / 0.162 / 0.0553,0 / 0 / 0,0 / 0 / 0
UUCUCUGUCC,0.0131,0 / 0 / 0,0 / 0 / 0,0 / 0 / 0
UUGCCGGAUG,0.222,0.104 / 0.162 / 0.0738,0.0276 / 0 / 0,0 / 0 / 0
UUGCCGUGGG,0.196,0.139 / 0.0539 / 0.0553,0 / 0 / 0.0232,0 / 0 / 0
UUGGCGAUCG,0.431,0.0695 / 0.126 / 0.0922,0 / 0 / 0.0232,0 / 0.0404 / 0.0205
UUGGCUGUCC,0.0131,0 / 0 / 0,0 / 0 / 0,0 / 0 / 0
UUUACGCCGG,0.170,0.0348 / 0.108 / 0.0184,0 / 0 / 0.0232,0 / 0 / 0
UUUACGGUGG,0.209,0.139 / 0.0539 / 0.0738,0 / 0 / 0,0 / 0 / 0
UUUCCGGUCG,0.366,0.122 / 0.108 / 0.111,0 / 0 / 0.0232,0 / 0 / 0
UUUGCGCCCG,0.261,0.104 / 0.0539 / 0.0922,0 / 0 / 0.0464,0 / 0 / 0

The first 7 entries again:

sequence,pool,inoculated region,leaf margin,systemic leaves
GGACCGAUGG,0.0131,0.0348 / 0.0359 / 0,0 / 0 / 0,0 / 0 / 0
GGACCGCAAG,0.0131,0.817 / 0.701 / 0.406,0.0276 / 0.0504 / 0.0232,0.0180 / 0.0808 / 0.0410
GGACCGGAGG,0.0131,0.0348 / 0.0180 / 0.0184,0 / 0 / 0,0 / 0 / 0
GGACCGUCUG,0.0131,0.0348 / 0.0180 / 0,0 / 0 / 0,0 / 0 / 0
GGUCCGGCCG,0.0131,0 / 0 / 0,0 / 0 / 0,0 / 0 / 0
UAAACGAGAG,0.170,0.678 / 0.593 / 0.479,0.0552 / 0.0504 / 0.0696,0 / 0 / 0
UAAACGCCAG,0.131,0.556 / 0.431 / 0.553,0.0552 / 0.0757 / 0.0696,0.0180 / 0.0404 / 0.0205

Data from the supplement of Wu et al. 2024, doi:10.1371/journal.ppat.1012142.